The source of these data is the supplement of paper PMC9931576.

Substitutions are numbered along the chain they refer to. Human monoclonal antibodies against the spike receptor-binding domain (heavy:light variable regions). IC50 against pseudoviruses bearing the spike of naturally observed variants; lower = stronger; >10 µg/ml means not reached at the top dose. No active / inactive call. The stated detection limit is 0.0005 µg/ml; values near or below 0.001 µg/ml lie at the floor of the assay.

What all share (assay): pseudovirus neutralization IC50; higher = weaker neutralization
Experiment [1] addresses SARS-CoV-2 Omicron BA.1 spike pseudovirus. As for the experimental part: (§1)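 Single-round VSV luciferase pseudovirus mixed with antibody dilutions for 1 h and put on Huh-7 cells for about a day; IC50 from the dose curve.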
Experiment [2] concerns the target SARS-CoV-2 Omicron BA.2 spike pseudovirus. How it is done:
as §1

In experiment [3] the target is SARS-CoV-2 Omicron BA.2.75 spike pseudovirus. As for the experimental part: as §1
Experiment [4] has as its target SARS-CoV-2 Omicron BA.5 spike pseudovirus. As for the experimental part: as §1
Experiment [5] has as its target SARS-CoV-2 Omicron BQ.1.1 spike pseudovirus. How it is done:
as §1

Experiment [6] deals with SARS-CoV-2 Omicron XBB spike pseudovirus. How it is done:
as §1

Experiment [7] concerns the target SARS-CoV-2 early D614G spike pseudovirus. As for the experimental part: as §1

B1: BD56-1471 (protein)
chain 1: QVQLVQSGAEVKKPGAPVKVSCKASGYTFTSNYMHWVRQAPGQGLEWMGIINPSDGSTRYAQNFQGRVTMTRDTSTSTVYMELSSLRSEDTAVYYCARSMYSTSSEDYYYYYYMDVWGKGTTVTVSS
chain 2: QSALTQPASVSGSPGQSITISCTGTSSDIGVYNYVSWYQQHPGKAPKLIIYDVTKRPSGVSNRFSGSRSGNTASLTISGLQTEDEVDYFCSSYSSITTHVVFGGGTKLTVL
For B1, the “pseudovirus neutralization IC50” value in experiment [1] is greater than 10 µg/mL; in experiment [2], 0.23 µg/mL; in experiment [3] it was greater than 10 µg/mL; in experiment [4] it was greater than 10 µg/mL; in experiment [5], greater than 10 µg/mL; in experiment [6], greater than 10 µg/mL. Besides, the “pseudovirus neutralization IC50” value in experiment [7] was 0.00241 µg/mL.

B2: BD56-1479 (protein)
chain 1: QVHLQESGPGLVRPSETLSLTCSVSGGSLSHYYWSWIRQPPGKGLEWIGYMFYSGGTNYNPSLRSRVTISVDTSNNQFSLKVRSVTAADTAIYFCARDRGDSSGWPDALSVWGQGTVVTVSS
chain 2: DIQMTQSPSSLSASVGDRVTITCQASQDIRNYLNWYQQKPGKAPKLLIYDASNLETGVPSRFSGSGSGTDFTFTISSLQPEDIATYYCQQYDNIPWTFGQGSKVESK
As to B2, the “pseudovirus neutralization IC50” value in experiment [1] is 0.529 µg/mL; in experiment [2], 0.371 µg/mL; in experiment [3], 0.287 µg/mL; in experiment [4], 0.337 µg/mL; in experiment [5], greater than 10 µg/mL; in experiment [6] it was 1.62 µg/mL. In addition, the “pseudovirus neutralization IC50” value in experiment [7] was 0.0128 µg/mL.

B3: BD56-1489 (protein)
chain 1: EVQLVESGGGLVQPGGSLRLSCAASGFTFRSYSMNWVRQAPGKGLEWVSYISSSSSTIYYADSVKGRFTISRDNAKNSLYLQMNSLRDEDTAVYYCARDPYYYDSRGYHYGPYYFDYWGQGTLVTVSS
chain 2: DIQMTQSPSSVSASVGDRVTITCRASQGISGWLAWYQQKPGKAPKLLIYAASSLQSGVPSRFSGSGSGTDFTLTISSLQPEDFATYYCQQANSFPLTFGQGTRLEIK
As for B3, the “pseudovirus neutralization IC50” value in experiment [1], in experiment [2], in experiment [3], in experiment [4], in experiment [5] and in experiment [6] was greater than 10 µg/mL in each case. Moreover, the “pseudovirus neutralization IC50” value in experiment [7] was greater than 10 µg/mL.

B4: BD56-1480 (protein)
chain 1: EVQLVESGGGLVQPGGSLRLSCVVSGFTVSSNYMSWVRQAPGKGLEWISVIYSGGSTFYADSVKGRFTISRHNSKNTLYLQMNSLRVEDTAVYYCARDPYGRPLTWGQGTLVTVSS
chain 2: DIQMTQSPSSLSASAGDRVTITCRASQDIVKFLNWYQQKPGKAPKVLIYDASNLETGVPSRFSGSGSGTDFSLTISSLQPEDVATYYCQQYDNLPITFGQGTRLEIK
As to B4, the “pseudovirus neutralization IC50” value in experiment [1] is 1.61 µg/mL; in experiment [2] it was 1.34 µg/mL; in experiment [3], greater than 10 µg/mL; in experiment [4], greater than 10 µg/mL; in experiment [5] it was greater than 10 µg/mL; in experiment [6], greater than 10 µg/mL. For the same molecule, in experiment [7], the “pseudovirus neutralization IC50” value was 0.0254 µg/mL.

B5: BD56-1493 (protein)
chain 1: EVQLVQSGAEVKKPGESLKISCKGSGYSFISYWIGWVRQMPGKGLEWMGIIYPGDSDTRYSPSFQGQVTISADKSISTAYLQWSSLKASDTAMYYCARQDGSRGWKGFDPWGQGTLVTVSS
chain 2: QSVLTQPPSASGTPGQRVTISCSGSSSNIGSNAVNWYQQLPGTAPKLLIYGNNQRPSGVPDRFSGSKSGTSASLAISGLQSEDGADYYCAAWDDSLNGWVFGGGTKLTVL
In the case of B5, the “pseudovirus neutralization IC50” value in experiment [1], in experiment [2], in experiment [3], in experiment [4], in experiment [5] and in experiment [6] was greater than 10 µg/mL in each case. Also, the “pseudovirus neutralization IC50” value in experiment [7] was greater than 10 µg/mL.

B6: BD56-1529 (protein)
chain 1: QVQLVQSGAEVKKPGASVKVSCKASGYTFINYYIHWVRQAPGQGLEWLAIINPDAGSTSYGQKFQGRVTVTGDTSTNTVYMELSSLRSEDTAVYYCARSAHGIPSARAWFDPWGQGTLVTVSS
chain 2: DIQMTQSPSTLSASVGDRVTITCRASQSIDSSLAWYHQKPGKAPEVLIYKASSLESGVPSRFSGSGSGTEFTLTISSLQPDDFATYFCQQYNSFPFTFGQGTKLEIK
As to B6, the “pseudovirus neutralization IC50” value in experiment [1], in experiment [2], in experiment [3], in experiment [4], in experiment [5] and in experiment [6] was greater than 10 µg/mL each time. Besides, the “pseudovirus neutralization IC50” value in experiment [7] is greater than 10 µg/mL.

B7: COV2-2485 (protein)
chain 1: QVQLVQSGAEVKKPGSSVKVSCKASGGTFSSYSITWVRQAPGQGLEWMGRIIPVLGIANYAQKFQDRVTITADKSTSTAYMELSSLRSEDTAVYYCARVGVSGFKSGSNWYFDLWGRGTLVTVSS
chain 2: QSVLTQPPSVSGAPGQRVTLSCTGSNSNIGAGYDVHWYQQLPGTAPKLLIYGNSNRPSGVPDRFSGSKSGTSASLAITGLQAEDEADYYCQSYDSSLSDSVFGGGTKVTVL
On to B7, for which the “pseudovirus neutralization IC50” value in experiment [1] is 0.19 µg/mL; in experiment [2] it was 0.0874 µg/mL; in experiment [3] it was 0.12 µg/mL; in experiment [4], greater than 10 µg/mL; in experiment [5] it was greater than 10 µg/mL; in experiment [6], greater than 10 µg/mL. Besides, the “pseudovirus neutralization IC50” value in experiment [7] was determined as 0.246 µg/mL.

B8: BD56-1526 (protein)
chain 1: QVQLQESGPGLVKPSQTLSLTCTVSGGSIRNDEYYWSWIRQPPGKGLEWIGYIHYSGNTYYNPSLKSRVAISVDTSKNQFSLKLSSVTAADTAVYYCARVDVGGRLVSTFDYWGLGTLVTVSS
chain 2: NFMLTQPHSVSESPGMTVTISCTGSSGSIASNYVQWYQQRPGSAPTTVIYENNQRPSGVPDRFSGSIDSSSNSASLTISGLKTEDEADYYCQSYDSSNIAVFGGGTQLTVL
As for B8, the “pseudovirus neutralization IC50” value in experiment [1], in experiment [2], in experiment [3], in experiment [4], in experiment [5] and in experiment [6] was greater than 10 µg/mL in each case. Also, the “pseudovirus neutralization IC50” value in experiment [7] stood at 0.818 µg/mL.

B9: BD56-1485 (protein)
chain 1: QVQLVQSGAEVKKPGSSVKVSCKASGGTFSRYAINWVRQAPGQGLEWMGGIIPLFGTAHYAQNFQGRLTITADKYTSTSYMELSSLRSDDTAVYYCARGNTVQPSDYYYYGMDVWGQGTTVTVSS
chain 2: DIQMTQSPSSLSASVGDRVTITCQASQDISNSLNWYQQKPGKAPKLLIYDASNLETGVPSRFSGSGSGTDFTFTISSLQPEDIATYYCQQYDNLPLFGQGTKLEIK
As to B9, the “pseudovirus neutralization IC50” value in experiment [1], in experiment [2], in experiment [3], in experiment [4], in experiment [5] and in experiment [6] was greater than 10 µg/mL in each case. Also, in experiment [7], the “pseudovirus neutralization IC50” value was 0.184 µg/mL.

B10: BD56-1486 (protein)
chain 1: QVQLVQSGAEVKKPGSSVKVSCKASGGTFSRYAISWVRQAPGQGLEWMGGIIPIFGTASYAQKFQGRVTITADKSTSTAYMELSSLKSQDTAVYYCARGNTPQPSDHYYHGMDVWGPGTTVTVSS
chain 2: B9 chain 2 with S30N, N31T, S32Y, D50H, N93I
On to B10, for which the “pseudovirus neutralization IC50” value in experiment [1], in experiment [2], in experiment [3], in experiment [4], in experiment [5] and in experiment [6] was greater than 10 µg/mL in each case. In addition, in experiment [7], the “pseudovirus neutralization IC50” value came out at 1.16 µg/mL.

B11: BD56-1516 (protein)
chain 1: QVQLVQSGADVKKPGSSVKVSCKASGGTFSSYSISWVRQAPGQGPEWMGTIIPILGIPSNAQRFQGRVTITADKSTSTAYLELSSLRSDDTAVYYCARSFHYESSGLAADAFDIWGQGTMVTVSS
chain 2: QSVLTQPPSVSGAPGQRVTISCTGTSSNIGAGYDVHWYQQLPGTAPKFLIFGDKNRPSGVPDRFSGSKSGTSASLAITGLQAEDEAAYYCQSYDSSLIGSVFGGGTKLTVL
As for B11, the “pseudovirus neutralization IC50” value in experiment [1] is 0.105 µg/mL; in experiment [2], 0.0828 µg/mL; in experiment [3], 0.0957 µg/mL; in experiment [4], greater than 10 µg/mL; in experiment [5] it was greater than 10 µg/mL; in experiment [6] it was greater than 10 µg/mL. Moreover, the “pseudovirus neutralization IC50” value in experiment [7] was determined as 0.0957 µg/mL.

B12: BD56-1476 (protein)
chain 1: EVQLVESGGGLIQPGGSLRLSCVASGFIVSSNYMSWVRQAPGKGLEWVSLIYSGGSTFYADSVKGRFSISRDNSKNTLYLEMNSLRGEDTAVYYCARLLPMAGTLDFWGQGTLVTVSS
chain 2: DIQMTQSPSSLSASVGDRVTITCQASQDINKYLNWYQQKPGKAPKLLIYDASNLETGVPSRFSGSGSGTHFTFTISSLQPEDIATYYCQQYDSLLAVTFGGGTKVAIK
With B12, the “pseudovirus neutralization IC50” value in experiment [1] was 0.011 µg/mL; in experiment [2], 0.0131 µg/mL; in experiment [3], 2.37 µg/mL; in experiment [4], 0.081 µg/mL; in experiment [5], greater than 10 µg/mL; in experiment [6], 1.87 µg/mL. Also, the “pseudovirus neutralization IC50” value in experiment [7] is 0.00504 µg/mL.
